From the supplement of paper PMC9931576
Human monoclonal antibodies against the spike receptor-binding domain (heavy:light variable regions). IC50 against pseudoviruses bearing the spike of naturally observed variants; lower = stronger; >10 µg/ml means not reached at the top dose. No active / inactive call. The stated detection limit is 0.0005 µg/ml; values near or below 0.001 µg/ml lie at the floor of the assay.

B1: COV2-2919 (protein)
chain 1: QVTLRESGPALVKPTQTLTLTCTFSGFSLSTSGMCLSWIRQPPGKALEWLARIDWDDDKYYSTSLETRLTISKDTSKNQVVLTMTNMDPVDTGTYYCARTMATINAFDIWGQGTMVTVSS
chain 2: DIQMTQSPSSLSASAGDRVTITCRASQSIRYYLNWYQQKPGKAPKLLIYAASSLQSGVPSRFSGSGSGTDFTLTISSLQPEDFAAYYCQQSFSTPRTFGQGTKLEIK
B2: BD56-1556 (protein)
chain 1: QLQLQESGPGLVKPSETLSLTCTVSGGSISSNNYYWGWIRQPPGKGLEWVESIYYTGTTYYNPSLKSRVTISVDTSKNQFSLRLSSVTAADTAVYYCARHGTLMVVDSFDYWGQGTLVTVSS
chain 2: QSVLTQPPSVSGAPGQRVTISCTGSSSNIGADYDVHWYQQFPGTAPKLLISGNTNRPSGVPDRFSGSKSGTSASLAITGLQADDEAIYYCQSHDSSLRGWVFGGGTKLTVL
B3: BD56-1562 (protein)
chain 1: QVQLVESGGGVIQPGRSVRLSCAASGFTFRHYGMHWVRQSPGKGLEWVAVISYDGSHKYYADSVKGRFTISRDNSKSVLYLQLNSLGPEDTAVYYCAKKDGGPYCGGGDCYSGLIDYWGQGTLVTVSS
chain 2: QSVLTQPPSVSAAPGQKVTISCSGSSSNIGNNFVSWYQQLPGTAPELLIYDNNERPSGIPDRFSGSKSGTSATLAITGLETGDEADYYCGTWDSSLTGMVFGGGTKLTVL
B4: BD56-1565 (protein)
chain 1: QVQLVQSGAEVKKPGASVKVYCKASRYRFNDHYVHWVRQAPGQGLEWMGIINPSAGSTTYERKFQGRVSMTTDTSTTTVFMELSSLRSEDTAVYFCARDSGFIPDRDAFDIWGQGTMVTVSS
chain 2: DIQMTQSPSTLSASVGDRVTITCRASQSISSRLAWYQQKPGKAPKLLIYKTSNLESGVPSRISGSGSGTEFTLTISSLQPDDFATFYCQQYDSFPYTFGQGTELEIK
B5: BD56-1568 (protein)
chain 1: QVQLQESGPGLVKPSQTLSLTCTVSGGSIISGTHYWSWIRQPAGMGLEWIGHIYTSGSTNYNPSLKSRVAFSVDTSKNQFSLKLSSVTASDTAVYYCAREVFRYFDWLYYFDYWGQGTLVTVSS
chain 2: SSELTQDPAVSVALGQTVRITCQGDSLRSYYATWYQQRPGQAPILVIYGQNNRPSGIPDRFSGSSSGNTASLTITGAQAEDEADYYCNSRDSSGHSYVFGTGTKVTVL
B6: BD56-1569 (protein)
chain 1: QVHLVESGGGVVQPGRSLRLSCAASGFTFRHYGMHWVRQAPGKGLEWVAATLYDGSSNYYADSVKGRFIISRDNSKNTLYLQMNSLRVEDTAVYYCAKLGAPYCGGGNCYSGYLDYWGQGTLVTVSS
chain 2: DIQMTQSPSSLSASVGDRVTITCQASQDVSHYLNWYQHKPGKAPKLLIYDASNLETGVPSRFSGSASGTDFTFTISSLQPEDFATYYCQQYQNLPLTFGGGTKVEIK
B7: COV2-2037 (protein)
chain 1: EVQLVESGGGLVQPGESLRLSCAASGITVSSNYMSWVRQAPGKGLEWVSVIYSGGSTFYADSVKGRFIISRHNSKNTLYLQMNSLRAEDTAVYYCARDLNEHGLDVWGQGTTVSVSS
chain 2: DIQMTQSPSSVSASVGDRVTITCRASQGISSWLAWYQQKPGKAPKLLIYAASSLQSGVPSRFSGSGSGTDFTLTISSLQPEDFATYYCQQTNSFPTFGQGTRLEIR
B8: BD56-1570 (protein)
chain 1: QVQLQQWGAGLLKPSETLTLTCGVSGGSFSGYYWSWVRQPPGKGLEWIGEINQSGSTNYNPSLKSRVTLSVDTSKDQFSLKLTSVTAADTAVYYCARLPQANYYYSYYDLDVWGRGTTVTVSS
chain 2: DIVMTQSPDSLAVSLGERATINCKSSQSILYSSNNKNYLAWYQQRPGQPPKLLFYWASIRESGVPDRFSGSGSGTDFTLTISSLQAADVALYFCQQYYDSPWTFGQGTKVEIK
B9: BD56-1572 (protein)
chain 1: EVQLVQSGAEVKKPGESLKISCKGSGYSFSTYWIAWVRQMPGKGLEWMGIIYPYDSDTRYSPSFQGQVTISADKSISTAYLQWTSLKASDTAMYYCARQDSGWALDYWGQGTLVTVSS
chain 2: SSELTQDPAVSVALGQTVRITCQGDSLRSYYASWYQQKAGQAPVLVIYGKTNRPSGIPDRFSGSGSGNTASLTITGAQAEDEADYYCNSRDSSGNHWVFGGGTKLTVL
B10: BD56-1578 (protein)
chain 1: EVQLVQSGAEVKKPGESLKISCKGSGYSFISYWSGWVRQTPGKGLEWMGIIYPGDSDTKYSPSFQGQVIISADKSISTSYLQWSSLKASDTAMYYCVRRDGGSYSGYDDYWGQGTLVTVSS
chain 2: QSVLTQPPSASGTPGQRVTISCSGGSSNIGSNPVNWYQQLPGAAPKLLIYNNNQRPSGFPDRFSGSKSGTSASLAISGLQSEDEAEYYCAAWDDSLNGYVFATGTKVTVL
B11: BD56-1583 (protein)
chain 1: QLLLQESGPGLVKPSETLSLTCTVSGASINTGSYYWAWIRQPPGKGLEWIGSLYYTVKTFYNPSLKSRVTMSVDTSKNHFSLRLSSVTAADTALYYCARLVIRFTYYFDSWGQGTVVTVSS
chain 2: QSALTQPASVSGSPGQSITISCSGTSNDVGTYNLVSWYQHHPGKAPKLMIYEGNKRPSGVSDRFSGSKSGNTASLTISGLQAEDEADYFCCSFGDTNTPVVFGGGTKVTVL
B12: COV2-2780 (protein)
chain 1: QVQLQQWGAGLLKPSETLSRTCAVYGASFSNYYWSWIRQPPGKGLEWIGEINHSENTNYNPSLKSRVTISVDTSKNQFSLRLSSVTAADTAVYYCARLRYSSSGGHIFDYWGQGTLVTVSS
chain 2: DIQMTQSPSSLSASVGDRVTITCQASQDINNYLNWYQQKSGKAPKLLIYDASNLETGVPSRFSGSGSGTDFTFTINSLQPEDIATYYCQQYDNLPYTFGQGTKLEIK

Tests used:
Assay in all cases: pseudovirus neutralization IC50; higher = weaker neutralization
[1] = biological target: SARS-CoV-2 Omicron BA.1 spike pseudovirus
Procedure: (§1)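 Single-round VSV luciferase pseudovirus mixed with antibody dilutions for 1 h and put on Huh-7 cells for about a day; IC50 from the dose curve.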

[2] = biological target: SARS-CoV-2 Omicron BA.2 spike pseudovirus
Procedure: as §1

[3] = biological target: SARS-CoV-2 Omicron BA.2.75 spike pseudovirus
Procedure: as §1

[4] = biological target: SARS-CoV-2 Omicron BA.5 spike pseudovirus
Procedure: as §1

[5] = biological target: SARS-CoV-2 Omicron BQ.1.1 spike pseudovirus
Procedure: as §1

[6] = biological target: SARS-CoV-2 Omicron XBB spike pseudovirus
Procedure: as §1

[7] = biological target: SARS-CoV-2 early D614G spike pseudovirus
Procedure: as §1

Binder | pseudovirus neutralization IC50 [1] [µg/mL] | pseudovirus neutralization IC50 [2] [µg/mL] | pseudovirus neutralization IC50 [3] [µg/mL] | pseudovirus neutralization IC50 [4] [µg/mL] | pseudovirus neutralization IC50 [5] [µg/mL] | pseudovirus neutralization IC50 [6] [µg/mL] | pseudovirus neutralization IC50 [7] [µg/mL]
B1 | > 10 | > 10 | > 10 | > 10 | > 10 | > 10 | 0.672
B2 | > 10 | > 10 | > 10 | > 10 | > 10 | > 10 | > 10
B3 | > 10 | > 10 | > 10 | > 10 | > 10 | > 10 | 6.66
B4 | > 10 | > 10 | > 10 | > 10 | > 10 | > 10 | > 10
B5 | > 10 | > 10 | > 10 | > 10 | > 10 | > 10 | > 10
B6 | 1.54 | 3.11 | 4.24 | 2.04 | 2.33 | 2.53 | 2.21
B7 | > 10 | > 10 | > 10 | > 10 | > 10 | > 10 | 0.0167
B8 | > 10 | > 10 | > 10 | > 10 | > 10 | > 10 | > 10
B9 | 2.58 | 1.26 | 0.497 | 0.614 | 1.06 | 2.08 | 2.2
B10 | 1.31 | 1.16 | 0.481 | 0.591 | 0.878 | 0.889 | 1.94
B11 | > 10 | > 10 | > 10 | > 10 | > 10 | > 10 | > 10
B12 | > 10 | > 10 | > 10 | > 10 | > 10 | > 10 | 1.53
